The Kd is the equilibrium constant for the complex coming apart. Read a low Kd as tighter binding.

For this assay, the target named is His-tagged full-length SARS-CoV-2 nucleocapsid protein (N-protein) (SARS-CoV-2). Kind of assay: SPR. (In general: In SPR one partner is held on a chip, and binding of the other changes the refractive index at the surface.)

B1: Recombinant RAGE protein (receptor for advanced glycation endproducts) (receptor)
chain: AQNITARIGEPLVLKCKGAPKKPPQRLEWKLNTGRTEAWKVLSPQGGGPWDSVARVLPNGSLFLPAVGIQDEGIFRCQAMNRNGKETKSNYRVRVYQIPGKPEIVDSASELTAGVPNKVGTCVSEGSYPAGTLSWHLDGKPLVPNEKGVSVKEQTRRHPETGLFTLQSELMVTPARGGDPRPTFSCSFSPGLPRHRALRTAPIQPRVWEPVPLEEVQLVVEPEGGAVAPGGTVTLTCEVPAQPSPQIHWMKDGVPLPLPPSPVLILPEIGPQDQGTYSCVATHSSHGPQESRAVSISIIEPGEEGPTAGSVGGSGLGTLA
B1: binding was characterised by a dissociation constant (Kd) of 34.5 nM.

For the origin of these results see article PMC10633841 (American Journal of Respiratory Cell and Molecular Biology, 2023).
